Assay [1] can be described thus: Selectivity ratio of IC50 for mouse alpha1beta1deltaepsilon nACh receptor to IC50 for rat alpha9alpha10 nACh receptor.
Assay [2] addresses Nicotinic acetylcholine receptor alpha1/beta1/epsilon/delta (Mus musculus) (UniProt P04756+P09690+P02716+P20782). The assay is described as follows: Antagonist activity at mouse alpha1beta1deltaepsilon nACh receptor expressed in Xenopus oocyte assessed as inhibition of acetylcholine-induced response at -70 mV holding potential by measuring ratio of IC50 by voltage-clamp based electrophysiological assay relative to GeXIVA. The conditions noted are these: filed as antagonist.

Protein sequences, listed by entry. Tags and fused reporters are not part of them. Residues count along the entry.
UniProt P04756, 21-457 limits assumed: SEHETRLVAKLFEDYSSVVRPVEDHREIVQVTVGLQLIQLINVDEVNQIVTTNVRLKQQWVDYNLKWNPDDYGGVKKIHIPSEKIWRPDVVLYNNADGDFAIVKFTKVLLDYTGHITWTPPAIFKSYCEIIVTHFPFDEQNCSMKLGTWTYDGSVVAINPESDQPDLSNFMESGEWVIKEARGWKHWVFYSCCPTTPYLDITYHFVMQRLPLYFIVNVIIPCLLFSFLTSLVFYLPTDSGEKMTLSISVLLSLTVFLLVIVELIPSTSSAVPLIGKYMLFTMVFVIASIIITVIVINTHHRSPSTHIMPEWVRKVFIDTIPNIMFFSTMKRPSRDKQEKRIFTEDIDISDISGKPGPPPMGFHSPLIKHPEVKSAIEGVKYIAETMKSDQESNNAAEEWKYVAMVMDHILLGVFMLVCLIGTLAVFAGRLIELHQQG
UniProt P09690, 24-501 partner limits assumed: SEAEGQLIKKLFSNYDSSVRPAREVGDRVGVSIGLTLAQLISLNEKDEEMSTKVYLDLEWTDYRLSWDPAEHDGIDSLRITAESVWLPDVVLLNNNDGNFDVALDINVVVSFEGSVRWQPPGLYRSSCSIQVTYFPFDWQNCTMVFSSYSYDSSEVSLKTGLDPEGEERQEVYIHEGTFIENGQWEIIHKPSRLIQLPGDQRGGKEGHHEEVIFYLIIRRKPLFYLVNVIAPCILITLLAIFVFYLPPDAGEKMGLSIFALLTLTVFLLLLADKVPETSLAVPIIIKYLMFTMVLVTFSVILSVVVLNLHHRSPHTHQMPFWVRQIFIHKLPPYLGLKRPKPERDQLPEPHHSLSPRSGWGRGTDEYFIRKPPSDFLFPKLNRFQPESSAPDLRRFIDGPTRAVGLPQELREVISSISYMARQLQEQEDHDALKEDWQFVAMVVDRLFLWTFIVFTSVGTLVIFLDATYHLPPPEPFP
UniProt P02716, 25-520 partner limits assumed: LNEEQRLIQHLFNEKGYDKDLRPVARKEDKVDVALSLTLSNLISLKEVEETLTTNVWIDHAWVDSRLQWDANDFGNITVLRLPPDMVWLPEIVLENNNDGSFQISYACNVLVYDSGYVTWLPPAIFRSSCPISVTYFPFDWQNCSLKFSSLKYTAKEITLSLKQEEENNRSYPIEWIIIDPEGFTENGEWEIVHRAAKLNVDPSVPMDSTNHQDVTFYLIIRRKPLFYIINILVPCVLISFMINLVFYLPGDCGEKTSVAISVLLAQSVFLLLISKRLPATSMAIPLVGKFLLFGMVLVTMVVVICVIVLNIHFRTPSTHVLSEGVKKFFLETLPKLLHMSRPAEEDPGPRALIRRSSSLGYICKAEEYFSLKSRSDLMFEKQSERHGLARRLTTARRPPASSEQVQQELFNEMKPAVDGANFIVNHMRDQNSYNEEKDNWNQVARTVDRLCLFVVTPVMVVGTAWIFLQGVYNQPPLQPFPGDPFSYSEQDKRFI
UniProt P20782, 21-493 partner limits assumed: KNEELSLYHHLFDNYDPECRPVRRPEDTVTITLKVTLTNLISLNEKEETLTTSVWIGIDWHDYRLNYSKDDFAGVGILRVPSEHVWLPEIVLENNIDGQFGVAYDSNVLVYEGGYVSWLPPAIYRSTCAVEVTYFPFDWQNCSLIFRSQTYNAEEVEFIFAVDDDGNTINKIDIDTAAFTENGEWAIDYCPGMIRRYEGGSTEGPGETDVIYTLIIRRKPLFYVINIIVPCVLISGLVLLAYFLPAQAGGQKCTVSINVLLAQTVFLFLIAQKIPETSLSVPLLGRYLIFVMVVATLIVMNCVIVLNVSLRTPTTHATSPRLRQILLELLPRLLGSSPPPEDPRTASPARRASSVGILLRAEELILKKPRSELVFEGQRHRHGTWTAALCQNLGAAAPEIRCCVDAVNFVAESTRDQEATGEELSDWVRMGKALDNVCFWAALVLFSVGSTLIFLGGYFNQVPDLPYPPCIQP

`CC[C@H](C)[C@@H]1NC(=O)[C@H](CCCNC(=N)N)NC(=O)[C@H](C)NC(=O)[C@@H](NC(=O)[C@H](Cc2ccc(O)cc2)NC(=O)[C@H](CCCNC(=N)N)NC(=O)[C@H](CCCNC(=N)N)NC(=O)[C@H](CCCNC(=N)N)NC(=O)[C@H](CCCNC(=N)N)NC(=O)[C@H](CC(=O)O)NC(=O)[C@H](Cc2ccc(O)cc2)NC(=O)[C@@H]2CCCN2C(=O)[C@H](CO)NC(=O)[C@H](CCCNC(=N)N)NC(=O)[C@@H]2CSSC[C@H](NC(=O)[C@@H](N)[C@@H](C)O)C(=O)N[C@@H](CCCNC(=N)N)C(=O)N[C@@H](CO)C(=O)N[C@@H](CO)C(=O)NCC(=O)N[C@@H](CCCNC(=N)N)C(=O)N[C@@H](Cc3ccc(O)cc3)C(=O)N2)CSSC[C@@H](C(=O)N[C@H](C(=O)O)C(C)C)NC(=O)[C@H](C)NC(=O)[C@H](CC(=O)O)NC(=O)[C@H]([C@@H](C)O)NC1=O`: the Ratio IC50 in assay [1] came to 154; in assay [2], 4.1.

Regarding `CC[C@H](C)[C@@H]1NC(=O)[C@H](CCCNC(=N)N)NC(=O)[C@H](CCCNC(=N)N)NC(=O)[C@@H](NC(=O)[C@H](Cc2ccc(O)cc2)NC(=O)[C@H](CCCNC(=N)N)NC(=O)[C@H](CCCNC(=N)N)NC(=O)[C@H](CCCNC(=N)N)NC(=O)[C@H](CCCNC(=N)N)NC(=O)[C@H](C)NC(=O)[C@H](Cc2ccc(O)cc2)NC(=O)[C@@H]2CCCN2C(=O)[C@H](CO)NC(=O)[C@H](CCCNC(=N)N)NC(=O)[C@@H]2CSSC[C@H](NC(=O)[C@@H](N)[C@@H](C)O)C(=O)N[C@@H](CCCNC(=N)N)C(=O)N[C@@H](CO)C(=O)N[C@@H](CO)C(=O)NCC(=O)N[C@@H](CCCNC(=N)N)C(=O)N[C@@H](Cc3ccc(O)cc3)C(=O)N2)CSSC[C@@H](C(=O)N[C@H](C(=O)O)C(C)C)NC(=O)[C@H](C)NC(=O)[C@H](CC(=O)O)NC(=O)[C@H]([C@@H](C)O)NC1=O`, the Ratio IC50 was 53.3 in assay [1] and 1.5 in assay [2].

`CC[C@H](C)[C@@H]1NC(=O)[C@H](CCCNC(=N)N)NC(=O)[C@H](CCCNC(=N)N)NC(=O)[C@@H](NC(=O)[C@H](Cc2ccc(O)cc2)NC(=O)[C@H](CCCNC(=N)N)NC(=O)[C@H](CCCNC(=N)N)NC(=O)[C@H](CCCNC(=N)N)NC(=O)[C@H](CCCNC(=N)N)NC(=O)[C@H](CC(=O)O)NC(=O)[C@H](Cc2ccc(O)cc2)NC(=O)[C@@H]2CCCN2C(=O)[C@H](CO)NC(=O)[C@H](CCCNC(=N)N)NC(=O)[C@@H]2CSSC[C@H](NC(=O)[C@@H](N)[C@@H](C)O)C(=O)N[C@@H](CCCNC(=N)N)C(=O)N[C@@H](CO)C(=O)N[C@@H](CO)C(=O)N[C@@H](C)C(=O)N[C@@H](CCCNC(=N)N)C(=O)N[C@@H](Cc3ccc(O)cc3)C(=O)N2)CSSC[C@H](C(=O)N[C@H](C(=O)O)C(C)C)NC(=O)[C@H](C)NC(=O)[C@H](CC(=O)O)NC(=O)[C@H]([C@@H](C)O)NC1=O`: the Ratio IC50 in assay [1] came to 253; in assay [2] it was 2.2.
